Experimental data: US11571416B2, “Amodiaquine analogs and methods of uses thereof” (priority 2017, dated 2023)

Test system: EBOV-GFP (recombinant Ebolavirus encoding a GFP reporter gene)
Format: cell-based

CCN(CC)Cc1cc(Nc2ccnc3cc(Cl)ccc23)ccc1O [Amodiaquine]
Selectivity index: 37 | Selectivity index (SI): 37

The source's definition of the ratio is not given here.
